Anti-infective test results gathered from many reports (values: NIAID ChemDB through PubChem).

Shared fields: tests in culture; agent: Aspergillus fumigatus; read-out: zone

Blank or dashed fields: not listed here.

compound,strain or isolate,read by,dose,value
CC(=O)Nc1ccc(F)cc1Sc1ncccc1[N+](=O)[O-],MTCC 343,,100 µg/mL,16 mm
N#Cc1ccc(Nc2nc(Oc3ccnc4ccccc34)nc(N3CCN(Cc4ccccc4)CC3)n2)cc1C(F)(F)F,MTCC 343,agar,100 µg/mL,<10 mm
CCOC(=O)C[C@H](O)C[C@H](O)CC[C@@H]1[C@@H]2C(=CCC[C@@H]2C(=O)O[C@H](C)CC)C=C[C@@H]1C,,agar diffusion,5 mg/disc,0 mm
CCC(C)CCCCCCCCCCC(=O)N[C@H]1C[C@@H](O)[C@@H](SCC(=O)OC)NC(=O)C2[C@@H](O)[C@@H](C)CN2C(=O)C(CO)NC(=O)C([C@H](O)C(SCC(=O)OC)c2ccc(O)cc2)NC(=O)NC(=O)[C@@H]2C[C@@H](O)CN2C(=O)[C@H]([C@@H](C)O)NC1=O,AF-1,agar,5 mg/mL,26 mm
Cc1ccc(N=c2cc(N)nc3sc(S(N)(=O)=O)nn23)cc1,,agar diffusion,5000 µg/mL,5 mm
C(=C\CN1c2ccccc2Sc2cccnc21)/CN1c2ccccc2Sc2cccnc21,MTCC 343,,100 µg/mL,13 mm
Cc1c(N2C(=O)CSC23C(=O)N(CCCCCCBr)c2ccc(F)cc23)c(=O)n(-c2ccccc2)n1C,MTCC 343,agar diffusion,100 µg/mL,0 mm
Fc1ccc2c(c1)Sc1cccnc1N2CCCCN1c2ccc(F)cc2Sc2cccnc21,MTCC 343,,100 µg/mL,10 mm
CN1CCN(c2nc(Nc3ccc(C#N)c(C(F)(F)F)c3)nc(Oc3ccnc4ccccc34)n2)CC1,MTCC 343,,100 µg/mL,<10 mm
Brc1ccc2c(c1)Sc1cccnc1N2CCCCCCN1c2ccc(Br)cc2Sc2cccnc21,MTCC 343,,100 µg/mL,11 mm
Clc1ccccc1C(c1ccccc1)(c1ccccc1)n1ccnc1,RCMB 02003,agar diffusion,25 µg/mL,18.3 mm
CCC(C)CCCCCCCCCCC(=O)N[C@H]1C[C@@H](O)[C@@H](N=[N+]=[N-])NC(=O)C2[C@@H](O)[C@@H](C)CN2C(=O)C(CO)NC(=O)C([C@H](O)C(N=[N+]=[N-])c2ccc(O)cc2)NC(=O)NC(=O)[C@@H]2C[C@@H](O)CN2C(=O)[C@H]([C@@H](C)O)NC1=O,AF-1,agar,5 mg/mL,8–25 mm
CC(C)N1CCN(c2nc(Nc3ccc(C#N)c(C(F)(F)F)c3)nc(Oc3cccc4cccnc34)n2)CC1,MTCC 343,agar diffusion / agar,100 µg/disc,21 mm
CCC(C)CCCCCCCCCCC(=O)N[C@H]1C[C@@H](O)[C@@H](OC)NC(=O)C2[C@@H](O)[C@@H](C)CN2C(=O)C(CO)NC(=O)C([C@H](O)C(OC)c2ccc(O)cc2)NC(=O)NC(=O)[C@@H]2C[C@@H](O)CN2C(=O)[C@H]([C@@H](C)O)NC1=O,AF-1,agar,2 mg/mL,30 mm
CC(=O)Nc1ccc(Br)cc1Sc1ncccc1[N+](=O)[O-],MTCC 343,,100 µg/mL,14 mm
CC(=O)c1ccc(-c2nn(-c3ccc(C)cc3)cc2-c2ccc([N+](=O)[O-])cc2)nc1C,,agar diffusion / agar,1.25 mg/mL,0 mm
Nc1ccccc1C(=O)Nc1ccc(Cl)cc1,RCMB 02003,agar diffusion,25 µg/mL,9.4 mm
Clc1ccc(COC(Cn2ccnc2)c2ccc(Cl)cc2Cl)c(Cl)c1,ATCC 16404,agar diffusion,500 µg/mL,20.9 mm
C[C@@H]1[C@H](O)[C@@H](C)/C=C/C=C/C=C/C=C/C=C/C=C/C=C/[C@H](O[C@@H]2O[C@H](C)[C@@H](O)[C@H](N)[C@@H]2O)C[C@@H]2O[C@](O)(C[C@@H](O)C[C@@H](O)[C@H](O)CC[C@@H](O)C[C@@H](O)CC(=O)O[C@H]1C)C[C@H](O)[C@H]2C(=O)O,,agar diffusion,10 µg,17.58 mm
Cc1ccc(CN(CC(O)C[N+](C)(C)C)[C@@H]2[C@@H](O)[C@H](O[C@@H]3O[C@H](COCC(=O)O)[C@@H](O[C@@H]4C[C@H](COCC(=O)O)[C@@H](C)[C@H](O)[C@H]4N(Cc4ccc(C)cc4)CC(O)C[N+](C)(C)C)[C@H](O)[C@H]3N(Cc3ccc(C)cc3)CC(O)C[N+](C)(C)C)[C@@H](COCC(=O)O)O[C@H]2C)cc1,RCMB 02568,agar diffusion,1 mg/mL,13.4 mm
Cc1ccc(-n2cc(-c3ccc([N+](=O)[O-])cc3)c(-c3ccn[nH]3)n2)cc1,,agar diffusion / agar,2.5 mg/mL,7 mm
N#Cc1ccc(Nc2nc(Oc3ccnc4ccccc34)nc(N3CCCCC3)n2)cc1C(F)(F)F,MTCC 343,agar,100 µg/mL,<10 mm
Cc1ccc(NC(=O)c2ccccc2N)cc1,RCMB 02003,agar diffusion,25 µg/mL,7.2 mm
Clc1ccc(COC(Cn2ccnc2)c2ccc(Cl)cc2Cl)c(Cl)c1,,agar diffusion,100 µg/mL,15 mm
Cc1ccc2c(c1)C1(SCC(=O)N1c1c(C)n(C)n(-c3ccccc3)c1=O)C(=O)N2CCCCCCN1C(=O)C2(c3ccccc31)c1c(C)nn(-c3ccccc3)c1Oc1c2c(C)nn1-c1ccccc1,MTCC 343,agar diffusion,100 µg/mL,12 mm
COc1ccc(C2C(C#N)=C(N)N=C3Sc4cc(C)ccc4N32)cc1OC,,agar diffusion,5000 µg/mL,9 mm
C[C@@H]1[C@@H](COCC(=O)O)C[C@@H](O[C@H]2[C@H](O)[C@@H](N(Cc3ccccc3)CC(O)C[N+](C)(C)C)[C@H](O[C@H]3[C@H](O)[C@@H](N(Cc4ccccc4)CC(O)C[N+](C)(C)C)[C@H](C)O[C@@H]3COCC(=O)O)O[C@@H]2COCC(=O)O)[C@H](N(Cc2ccccc2)CC(O)C[N+](C)(C)C)[C@H]1O,RCMB 02568,agar diffusion,1 mg/mL,15.2 mm
Clc1ccccc1C(c1ccccc1)(c1ccccc1)n1ccnc1,,agar diffusion,0.1 µg/mL,21 mm
CCC(C)CCCCCCCCCCC(=O)N[C@H]1C[C@@H](O)[C@@H](S(=O)(=O)CC(=O)OC)NC(=O)C2[C@@H](O)[C@@H](C)CN2C(=O)C(CO)NC(=O)C([C@H](O)C(O)c2ccc(O)cc2)NC(=O)NC(=O)[C@@H]2C[C@@H](O)CN2C(=O)[C@H]([C@@H](C)O)NC1=O,AF-1,agar,2 mg/mL,21 mm
CCOC(=O)C1=NN(c2ccccc2)C2=Nc3nccc(-c4nn(-c5ccccc5)cc4-c4ccc([N+](=O)[O-])cc4)c3C(=O)C12,,agar diffusion / agar,5 mg/mL,19 mm
Cc1ccccc1N1CCN(CC(=O)N2c3ccccc3Sc3ccccc32)CC1,,agar diffusion,0.1 µg/mL,12 mm
CCC(C)CCCCCCCCCCC(=O)N[C@H]1C[C@@H](O)[C@@H](O)NC(=O)C2[C@@H](O)[C@@H](C)CN2C(=O)C(CO)NC(=O)C([C@H](O)C(O)c2ccc(O)cc2)NC(=O)NC(=O)[C@@H]2C[C@@H](O)CN2C(=O)[C@H]([C@@H](C)O)NC1=O,AF-1,agar,0.1 mg/mL,24 mm
Fc1ccc2c(c1)Sc1cccnc1N2CCCCCCN1c2ccc(F)cc2Sc2cccnc21,MTCC 343,,100 µg/mL,11 mm
N#Cc1ccc(Nc2nc(Oc3cccc4cccnc34)nc(N3CCCCC3)n2)cc1C(F)(F)F,MTCC 343,agar diffusion / agar,100 µg/disc,21 mm
CCN1CCN(c2nc(Nc3ccc(C#N)c(C(F)(F)F)c3)nc(Oc3ccnc4ccccc34)n2)CC1,MTCC 343,agar,100 µg/mL,<10 mm
C[C@@H]1[C@@H](COCC(=O)O)C[C@@H](O[C@H]2[C@H](O)[C@@H](N(Cc3ccc(Br)cc3)CC(O)C[N+](C)(C)C)[C@H](O[C@H]3[C@H](O)[C@@H](N(Cc4ccc(Br)cc4)CC(O)C[N+](C)(C)C)[C@H](C)O[C@@H]3COCC(=O)O)O[C@@H]2COCC(=O)O)[C@H](N(Cc2ccc(Br)cc2)CC(O)C[N+](C)(C)C)[C@H]1O,RCMB 02568,agar diffusion,1 mg/mL,18.6 mm
Cc1ccc2c(c1)C1(C(=O)N2CCCCCCN2C(=O)C3(SCC(=O)N3c3c(C)n(C)n(-c4ccccc4)c3=O)c3cc(C)ccc32)c2c(C)nn(-c3ccccc3)c2Oc2c1c(C)nn2-c1ccccc1,MTCC 343,agar diffusion,100 µg/mL,14 mm
Cc1ccc(-n2cc(-c3ccc([N+](=O)[O-])cc3)c(-c3ccon3)n2)cc1,,agar diffusion / agar,1.25 mg/mL,2 mm
CC(=O)N1CCN(c2nc(Nc3ccc(C#N)c(C(F)(F)F)c3)nc(Oc3cccc4cccnc34)n2)CC1,MTCC 343,agar diffusion / agar,100 µg/disc,23 mm
Cc1nn(-c2ccccc2)c2c1C1(C(=O)N(CCCCCCN3C(=O)C4(SCC(=O)N4c4c(C)n(C)n(-c5ccccc5)c4=O)c4ccccc43)c3ccccc31)c1c(C)nn(-c3ccccc3)c1O2,MTCC 343,agar diffusion,100 µg/mL,13 mm
Brc1ccc2c(c1)Sc1cccnc1N2CCCCN1c2ccc(Br)cc2Sc2cccnc21,MTCC 343,,100 µg/mL,12 mm

Rows are shuffled and stem from different studies. Zones are inhibition diameters on agar. Two numbers with a dash give a range or band.